# In publication PMC4959528, “SpoVG Is a Conserved RNA-Binding Protein That Regulates Listeria monocytogenes Lysozyme Resistance, Virulence, and Swarming Motility”:
# For at least one entry, the source does not settle the construct or the ends of the probe. At least one verdict was read from the data and is not stated in words by the source. Where a protein sequence is shown, tags need not be part of it.
# Molecular target: T1, SpoVG-6-His (Listeria monocytogenes 10403S) (UniProt Q8YAD5)
# T1 sequence (looked up, limits assumed): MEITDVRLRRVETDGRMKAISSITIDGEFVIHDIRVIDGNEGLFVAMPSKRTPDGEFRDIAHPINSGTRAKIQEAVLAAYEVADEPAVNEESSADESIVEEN
# Assay: EMSA
# Conditions: 300 mM NaCl, 5 mM DTT, plus 5 ug yeast tRNA, 1 ug BSA, 100 ng poly(dI-dC), 25-30 ul, recombinant protein, protein details: C-terminal 6xHis, label: 32P, single-stranded DNA
# [1] = affinity similar to cap41 and pgdA, 2 mM MgCl2, 20% glycerol
# [2] = affinity similar to cap41, 2 mM MgCl2, 20% glycerol
Sequence,binding result [1],binding result [2],other results
GAGTATAATTATTTTTAATTTACATATAAATAAAAAGGCGAAAATAATGCGGTTTAAAAGTAATTAAT [cap41 ssDNA],–,–,"Kd (apparent Kd, 2 mM MgCl2, 20% glycerol): 1.2 µM"
ATTTTTTAGCGCTATAAAAAAGCTATTTTTTAAAAAAGTACTTTTTTGA [scrambled probe 3],binds,–,–
GCCGAGCGGGTACGCCGTGCGGTATGGGCCCACGCTCCGTGGCGTGCCG [scrambled probe 2],binds,–,–
AATTCGATATATGATTTTGAAAATGAATTTCATAACTTTTAAATTGCGT [scrambled probe 1],binds,–,–
ACAAAAACTAGAAACTTGCCTTTTTTCATGTATAATTGTTTTATAAGAA [pgdA promoter 1],–,binds,–
TTTGTTAAGAAATCGTTGGTCCTTTTTTCCTATTTTAGTACAAAAACTA [pgdA promoter 2],–,binds,–
CGGTAAAAGCTCCCACTTTATCCGTGTCTTTTTTGTGACATTTGTTAAG [pgdA promoter 3],–,binds,–
